Data reported in US20070249637A1, “Inhibitors Of Hepatitis C Virus Protease, And Compositions And Treatments Using The Same” (priority 2004, published 2007).

test system: HCV dual reporter subgenomic replicon (B6b cell line); assay: HCV dual reporter subgenomic replicon assay, Renilla luciferase (antiviral activity); assay type: cell-based, Hepatitis C virus; conditions: therapeutic index = CC50 divided by EC50
Experimental: The compounds described herein were tested for antiviral activity utilizing a dual-reporter replicon assay as described in U.S. patent application Ser. No. 10/818,075 (the '075 application), filed Apr. 5, 2004. The disclosure of the '075 application is incorporated herein.
Cell-based antiviral activity was evaluated in the previously described HCV dual reporter subgenomic replicon system (the '075 application). With this system, the effects of a compound on both HCV replication and cell viability can be simultaneously determined by measuring the intracellular levels of two separate reporter proteins. The dicistronic selectable replicon contains the Renilla luciferase gene such that Renilla luciferase activity within stably-transfected cells serves as a marker of HCV replication. The firefly luciferase gene is stably integrated into and expressed by the Huh-7 host cells. Since firefly luciferase activity is dependent upon cellular transcription and translation, firefly luciferase activity serves as an indicator of cell viability.
The dual reporter selectable replicon cell line (B6b) was maintained in DMEM supplemented with 10% FBS, L-glutamine, non-essential amino acids, penicillin, streptomycin, and selection agents (200 ug/ml G418 and 6 ug/ml blastocidin). On the first day of the experiment, cells were trypsinized, washed, and diluted in medium lacking the selection agents. Cells were transferred to 96-well, black-walled, clear bottom plates at a density of 2×10^4 cells in 150 ul of medium per well. Cells were allowed to settle for 60 to 90 minutes while compounds were being prepared. Each compound was initially diluted to a 4× working stock (2.56% DMSO in tissue culture medium) that was then serially diluted nine times in half log increments in medium with 2.56% DMSO. Fifty microliters of each dilution were then added in triplicate to the plated cells in order to obtain final IX compound concentrations with 0.64% DMSO. Typical testing concentrations ranged from 320 uM to 10 nM. Control wells containing 0.64% DMSO without compound were also included on each plate.
After 3 days of incubation under humidity at 37° C. with 5% CO2, plates were microscopically examined for compound precipitation and cell death. Tissue culture medium was then aspirated and cells were lysed with 20 ul of 1× Passive Lysis Buffer (Promega, Madison, Wis.). Reporter activity was measured using a MicroBeta Jet 1450 (Perkin Elmer, Boston, Mass.) following sequential 50 ul additions of firefly and Renilla luciferase substrates as described in the manufacturers protocol (Promega). Luciferase activities were expressed as a percentage of the signals observed in the compound-free control wells. The amount of compound required to reduce Renilla luciferase expression by 50% is defined as the 50% effective concentration, or EC50. The amount of compound that reduces firefly luciferase expression by 50% is defined as the 50% cytotoxic concentration, or CC50. A therapeutic index (TI) is calculated by dividing the CC50 by the EC50.

`Cc1cc(-c2nc(O[C@@H]3C[C@H]4C(=O)N[C@]5(C(=O)O)C[C@H]5/C=C\CCCCC[C@H](NC(=O)CC5CC5)C(=O)N4C3)c3sccc3n2)n(C)n1` [Example 63, (2R,6S,12Z,13aS,14aR,16aS)-6-[(cyclopropylacetyl)amino]-2-{[2-(1,3-dimethyl-1H-pyrazol-5-yl)thieno[3,2-d]pyrimidin-4-yl]oxy}-5,16-dioxo-1,2,3,6,7,8,9,10,11,13a,14,15,16,16a-tetradecahydrocyclopropa[e]pyrrolo[1,2-a][1,4]diazacyclopentadecine-14a(5H)-carboxylic acid] was tested, and the “Replicon TI” value was greater than 29000.
`O=C(N[C@H]1CCCCC/C=C\[C@@H]2C[C@@]2(C(=O)O)NC(=O)[C@@H]2C[C@@H](Oc3nc(-c4ccccn4)nc4ccsc34)CN2C1=O)OC1CCC1` [Example 43, (2R,6S,12Z,13aS,14aR,16aS)-6-{[(cyclobutyloxy)carbonyl]amino}-5,16-dioxo-2-[(2-pyridin-2-ylthieno[3,2-d]pyrimidin-4-yl)oxy]-1,2,3,6,7,8,9,10,11,13a,14,15,16,16a-tetradecahydrocyclopropa[e]pyrrolo[1,2-a][1,4]diazacyclopentadecine-14a(5H)-carboxylic acid] was tested, and the “Replicon TI” value was greater than 1700.

Point of comparison: `Cc1cc(-c2nc(O[C@@H]3C[C@H]4C(=O)N[C@]5(C(=O)O)C[C@H]5/C=C\CCCCC[C@H](NC(=O)OC5CCC5)C(=O)N4C3)c3sccc3n2)n(C)n1` [Example 60, (2R,6S,12Z,13aS,14aR,16aS)-6-{[(Cyclobutyloxy)carbonyl]amino}-2-{[2-(1,3-dimethyl-1H-pyrazol-5-yl)thieno[3,2-d]pyrimidin-4-yl]oxy}-5,16-dioxo-1,2,3,6,7,8,9,10,11,13a,14,15,16,16a-tetradecahydrocyclopropa[e]pyrrolo[1,2-a][1,4]diazacyclopentadecine-14a(5H)-carboxylic acid], “Replicon TI” value 320. Against it:
- O=C(N[C@H]1CCCCC/C=C\[C@@H]2C[C@@]2(C(=O)O)NC(=O)[C@@H]2C[C@@H](Oc3cc(-c4ccccn4)nc4ccsc34)CN2C1=O)OC1CCC1 [Example 13, (2R,6S,12Z,13aS,14aR,16aS)-6-{[(Cyclobutyloxy)carbonyl]amino}-5,16-dioxo-2-[(5-pyridin-2-ylthieno[3,2-b]pyridin-7-yl)oxy]-1,2,3,6,7,8,9,10,11,13a,14,15,16,16a-tetradecahydrocyclopropa[e]pyrrolo[1,2-a][1,4]diazacyclopentadecine-14a(5H)-carboxylic acid] — higher, 520
- O=C(CC1CC1)N[C@H]1CCCCC/C=C\[C@@H]2C[C@@]2(C(=O)O)NC(=O)[C@@H]2C[C@@H](Oc3nc(-c4ccccn4)nc4sccc34)CN2C1=O [Example 31, (2R,6S,12Z,13aS,14aR,16aS)-6-[(Cyclopropylacetyl)amino]-5,16-dioxo-2-[(2-pyridin-2-ylthieno[2,3-d]pyrimidin-4-yl)oxy]-1,2,3,6,7,8,9,10,11,13a,14,15,16,16a-tetradecahydrocyclopropa[e]pyrrolo[1,2-a][1,4]diazacyclopentadecine-14a(5H)-carboxylic acid] — higher, 670
- O=C(N[C@H]1CCCCC/C=C\[C@@H]2C[C@@]2(C(=O)O)NC(=O)[C@@H]2C[C@@H](Oc3nc(-c4ccccn4)nc4sccc34)CN2C1=O)OC1CCCC1 [Example 26, (2R,6S,12Z,13aS,14aR,16aS)-6-{[(Cyclopentyloxy)carbonyl]amino}-5,16-dioxo-2-[(2-pyridin-2-ylthieno[2,3-d]pyrimidin-4-yl)oxy]-1,2,3,6,7,8,9,10,11,13a,14,15,16,16a-tetradecahydrocyclopropa[e]pyrrolo[1,2-a][1,4]diazacyclopentadecine-14a(5H)-carboxylic acid] — higher, 1200
- O=C(CC1CC1)N[C@H]1CCCCC/C=C\[C@@H]2C[C@@]2(C(=O)O)NC(=O)[C@@H]2C[C@@H](Oc3cc(-c4ccccn4)nc4ccsc34)CN2C1=O [Example 16, (2R,6S,12Z,13aS,14aR,16aS)-6-[(Cyclopropylacetyl)amino]-5,16-dioxo-2-[(5-pyridin-2-ylthieno[3,2-b]pyridin-7-yl)oxy]-1,2,3,6,7,8,9,10,11,13a,14,15,16,16a-tetradecahydrocyclopropa[e]pyrrolo[1,2-a][1,4]diazacyclopentadecine-14a(5H)-carboxylic acid] — higher, 1800
